No end group written: not given here.
Columns and labels:
Assay type in all cases: physicochemical
[1] = X-ray diffuse scattering, Euk33 LMM; conditions: Euk33 LMM with peptide; for 2DC (±0.5), hydrocarbon thickness / DHH (±0.5), distance between phosphate groups: 75:1, 37 °C; for 2DC (±0.5), hydrocarbon thickness: control 32.0; for DHH (±0.5), distance between phosphate groups: control 40.3; for area/lipid (±1): 75:1 lipid/peptide (Figure 9), 37 °C, control 64.2
[2] = Neutron reflectivity, peptide partitioning in tethered bilayer; conditions: single tethered G(−)IM bilayer, 37 °C, NR
[3] = X-ray diffuse scattering, G(−)IM LMM; conditions: G(−)IM LMM with peptide; for 2DC (±0.5), hydrocarbon thickness / DHH (±0.5), distance between phosphate groups: 75:1, 37 °C; for 2DC (±0.5), hydrocarbon thickness: control 29.1; for DHH (±0.5), distance between phosphate groups: control 39.2; for area/lipid (±1): 75:1 lipid/peptide (Figure 8), 37 °C, control 70.8

Row | Compound | 2DC (±0.5), hydrocarbon thickness [1] | DHH (±0.5), distance between phosphate groups [1] | area/lipid (±1) [1] | fraction of protein in bulk solvent [2] | fraction of protein in hydrocarbons [2] | fraction of protein in outer headgroups [2] | 2DC (±0.5), hydrocarbon thickness [3] | DHH (±0.5), distance between phosphate groups [3] | area/lipid (±1) [3]
1 | CC[C@H](C)[C@H](NC(=O)[C@@H](NC(=O)[C@H](CO)NC(=O)[C@H](CCCCN)NC(=O)[C@@H](NC(=O)[C@H](CCCCN)NC(=O)CNC(=O)[C@H](Cc1c[nH]c2ccccc12)NC(=O)[C@@H](NC(=O)CNC(=O)CNC(=O)[C@@H](NC(=O)[C@H](Cc1c[nH]c2ccccc12)NC(=O)CNC(=O)[C@H](CCCCN)NC(=O)[C@@H](NC(=O)[C@H](CCCCN)NC(=O)[C@H](CCCCN)NC(=O)[C@H](Cc1ccccc1)NC(=O)[C@H](Cc1ccccc1)NC(=O)[C@H](CCCCN)NC(=O)[C@H](CCCCN)NC(=O)[C@@H](N)CC(C)C)C(C)C)C(C)C)C(C)C)C(C)C)C(C)C)C(=O)N[C@@H](CCCCN)C(=O)O (stereo in doubt) [A4-153] | 31.7 Å | 41.4 Å | 65.0 Å^2 | 0.25 ± 0.05 | 0.20 ± 0.10 | 0.50 ± 0.10 | 29.5 Å | 39.9 Å | 69.9 Å^2
2 | CC(C)[C@H](NC(=O)CNC(=O)CNC(=O)[C@@H](NC(=O)[C@H](Cc1c[nH]c2ccccc12)NC(=O)CNC(=O)[C@H](CCCCN)NC(=O)[C@@H](NC(=O)[C@H](CCCCN)NC(=O)[C@H](CCCCN)NC(=O)[C@H](Cc1ccccc1)NC(=O)[C@H](Cc1ccccc1)NC(=O)[C@H](CCCCN)NC(=O)[C@H](CCCCN)NC(=O)[C@@H](N)Cc1ccccc1)C(C)C)C(C)C)C(=O)N[C@@H](Cc1c[nH]c2ccccc12)C(=O)NCC(=O)N[C@@H](CCCCN)C(=O)N[C@H](C(=O)N[C@@H](CCCCN)C(=O)N[C@@H](CO)C(=O)N[C@H](C(=O)N[C@H](C(=O)N[C@@H](CCCCN)C(=O)O)C(C)C)C(C)C)C(C)C (stereo in doubt) [A4-157] |  |  |  | 0.40 ± 0.10 | 0.38 ± 0.09 | 0.21 ± 0.09 |  |  | 
3 | FKKFLKKFKGWLGGLWGK [A4-183] |  |  |  | 0.59 ± 0.09 | 0.14 ± 0.08 | 0.26 ± 0.06 |  |  | 
4 | GVKKKWKKKLGLTLWLKISGVV [A4-198, version scrambled to α-helical content, with a similar hydrophobicity as A4-153] | 29.7 Å | 38.9 Å | 74.0 Å^2 | 0.27 ± 0.06 | 0.51 ± 0.08 | 0.23 ± 0.07 | 26.6 Å | 35.5 Å | 80.9 Å^2

Reference: publication PMC10265666, “Lung SPLUNC1 Peptide Derivatives in the Lipid Membrane Headgroup Kill Gram-Negative Planktonic and Biofilm Bacteria” (Biomacromolecules, 2023)
